Measured values from several laboratories, pooled; numbers as filed in NIAID ChemDB.

Shared fields: whole-cell or culture tests

Blank or dashed fields: not listed here. MIC50, MIC90 and the like: level of inhibition, or share of isolates inhibited. Zones are inhibition diameters on agar. Rows are shuffled and stem from different studies. Two numbers with a dash give a range or band.

SMILES | organism | strain or isolate | read by | measure | dose | result
CC(=O)OC[C@H]1O[C@@H](n2[nH]c(-c3ccccc3)[n+](/N=C/c3ccc(C)cc3)c2=S)[C@H](OC(C)=O)[C@@H](OC(C)=O)[C@@H]1OC(C)=O | Aspergillus fumigatus |  | agar diffusion / agar | zone | 1 mg/mL | 1–5 mm
CNCCC(Oc1ccc(C(F)(F)F)cc1)c1ccccc1 | Aspergillus fumigatus | 10 clinical isolates |  | MFC |  | 78–1250 µg/mL
O=C1C=C(N2CCOCC2)C(=O)c2ccccc21 | Aspergillus parasiticus | MTCC 2797 | broth dilution | MIC100 |  | 125 µg/mL
[Al]#[P] | Aspergillus ochraceus |  | agar | MIC |  | 2 µg/mL
C[C@H]1[C@H](O)[C@@H](C)/C=C/C=C/C=C/C=C/C=C/C=C/C=C/[C@H](O[C@@H]2O[C@H](C)[C@@H](O)[C@H](N)[C@@H]2O)C[C@@H]2O[C@](O)(C[C@@H](O)C[C@@H](O)CC[C@H](O)[C@@H](O)C[C@@H](O)CC(=O)O[C@H]1C)C[C@H](O)[C@H]2C(=O)O | Aspergillus niger |  |  | MIC90 |  | 0.5–2 µg/mL
CC(=O)c1ccccc1O | Aspergillus flavus |  | agar | MIC100 |  | 221 µg/mL
Nc1[nH]c(=O)ncc1F | Aspergillus niger |  |  | MIC90 |  | >64 µg/mL
CC(=O)OC[C@H]1O[C@@H](Sc2nnc(-c3cccnc3)n2/N=C/c2ccc(Cl)cc2)[C@H](OC(C)=O)[C@@H](OC(C)=O)[C@@H]1OC(C)=O | Aspergillus fumigatus |  | agar diffusion / agar | zone | 5 mg/mL | 1–5 mm
CCN1CCN(c2nc(Cl)nc(NC3CC3)n2)CC1 | Aspergillus clavatus | MTCC 1323 | agar | MIC |  | 200 µg/mL
OC(Cn1cncn1)(Cn1cncn1)c1ccc(F)cc1F | Aspergillus fumigatus | NFI 0159 |  | MFC |  | >128 µg/mL
C[C@H]1[C@H](O)[C@@H](C)/C=C/C=C/C=C/C=C/C=C/C=C/C=C/[C@H](O[C@@H]2O[C@H](C)[C@@H](O)[C@H](N)[C@@H]2O)C[C@@H]2O[C@](O)(C[C@@H](O)C[C@@H](O)CC[C@H](O)[C@@H](O)C[C@@H](O)CC(=O)O[C@H]1C)C[C@H](O)[C@H]2C(=O)O | Aspergillus flavus | ATCC 9170 | broth dilution | MIC100 |  | 0.5 µg/mL
O=c1oc2ccccc2c2nc3c(cc12)CCc1ccccc1-3 | Aspergillus nidulans | MTCC 282 |  | zone | 1 mg/mL | 18 mm
Clc1nc(NC2CC2)nc(N2CCN(c3cccc(Cl)c3Cl)CC2)n1 | Aspergillus clavatus | MTCC 1323 | agar | MIC |  | 100 µg/mL
CN=C(N)NCCC/C=C/CCCC(C)CC(C)C1OC(=O)C(C)C(O)/C=C/C(C)C(O)CC(O)C(C)C(O)CCC(C)C(O)CC2(O)OC(CC(OC(=O)CC(=O)O)CC(O)CC(O)C(C)C(O)/C=C/C=C/C1C)CC(O)C2O | Aspergillus oryzae |  |  | MIC |  | 8 µg/mL
CN(C)C1=NC(=O)/C(=C/c2ccc(F)cc2)S1 | Aspergillus flavus | ATCC 9170 | broth dilution | MIC100 |  | >250 µg/mL
O=c1[nH]cnc2c1ncn2[C@H]1CC[C@@H](CO)O1 | Aspergillus clavatus | MTCC 1323 | agar | MIC |  | 200 µg/mL
CC[C@@H]([C@H](C)O)n1ncn(-c2ccc(N3CCN(c4ccc(OC[C@@H]5CO[C@@](Cn6cncn6)(c6ccc(F)cc6F)C5)cc4)CC3)cc2)c1=O | Aspergillus niger |  |  | MIC90 |  | 0.5–1 µg/mL
C[C@@H]1[C@H](O)[C@@H](C)/C=C/C=C/CC/C=C/C=C/C=C/C=C/C(O[C@H]2O[C@H](C)[C@@H](O)[C@H](N)[C@@H]2O)CC2O[C@](O)(CC(O)C(O)CCC(O)CC(O)CC(O)CC(=O)O[C@H]1C)CC(O)C2C(=O)O | Aspergillus clavatus | MTCC 1323 | broth dilution | MIC |  | 100 µg/mL
CC(=O)OC[C@H]1O[C@@H](Sc2ncc(-c3cccnc3)n2N)[C@H](OC(C)=O)[C@@H](OC(C)=O)[C@@H]1OC(C)=O | Aspergillus fumigatus |  | agar diffusion / agar | zone | 2.5 mg/mL | 1–5 mm
Cc1ccc(N2NOC(=O)C2S(=O)(=O)Nc2ccc(-n3c(-c4ccccc4)nc4ccccc4c3=O)cc2)cc1 | Aspergillus clavatus | MTCC323 | broth dilution | MIC |  | 250 µg/mL
COc1cc(C(=O)O)ccc1O | Aspergillus flavus |  | agar | MIC100 |  | >1000 µg/mL
COc1ccc(-c2csc(NS(=O)(=O)C3C(=O)ONN3c3ccc(C)cc3)n2)cc1 | Aspergillus clavatus | MTCC323 | agar diffusion | zone | 250 µg/mL | 21 mm
O=C1C=C(NCCN2CCOCC2)C(=O)c2ccccc21 | Aspergillus ochraceus | MTCC 4893 | broth dilution | MIC100 |  | 125 µg/mL
CC(C)c1cc2c(c(O)c1O)[C@@]13CCCC(C)(C)C1C[C@@H]2OC3=O | Aspergillus tubingensis |  | broth dilution | MIC |  | 300 µg/mL
Cc1ccc(N2NOC(=O)C2S(=O)(=O)Nc2nc3ccc(Cl)cc3s2)cc1 | Aspergillus clavatus | MTCC323 | agar diffusion | zone | 250 µg/mL | 22 mm
OC[C@H]1O[C@@H](n2[nH]c(-c3cccnc3)nc2=S)[C@H](O)[C@@H](O)[C@@H]1O | Aspergillus fumigatus |  | agar diffusion / agar | zone | 1 mg/mL | 0 mm
COc1cc(C(C)=O)ccc1O | Aspergillus flavus |  | agar | MIC100 |  | >1000 µg/mL
O=C1C(=O)c2ccccc2-c2ccccc21 | Aspergillus clavatus | KACC 40071 | visual reading | MIC |  | 20 µg/mL
CC(=O)N1CCN(c2ccc(OC[C@H]3CO[C@](Cn4ccnc4)(c4ccc(Cl)cc4Cl)O3)cc2)CC1 | Aspergillus flavus | ATCC 9170 | broth dilution | MIC100 |  | 0.5 µg/mL
CC(=O)OC[C@H]1O[C@@H](Sc2nnc(-c3cccnc3)n2/N=C/c2ccccc2)[C@H](OC(C)=O)[C@@H](OC(C)=O)[C@@H]1OC(C)=O | Aspergillus fumigatus |  | agar diffusion / agar | zone | 1 mg/mL | 1–5 mm
Cc1ccc(N2NOC(=O)C2S(=O)(=O)Nc2nc(-c3c(Cl)cccc3Cl)cs2)cc1 | Aspergillus clavatus | MTCC323 | broth dilution | MIC |  | 500 µg/mL
CC(C)=CCC/C(C)=C/CO | Aspergillus flavus | NRRL 501 | broth dilution | MIC |  | 144 µg/mL
CN(C/C=C/C#CC(C)(C)C)Cc1cccc2ccccc12 | Aspergillus fumigatus |  | agar diffusion / agar | zone | 1 mg/mL | 6–10 mm
CCCCCOc1ccc(-c2ccc(-c3ccc(C(=O)N[C@H]4C[C@@H](O)[C@@H](O)NC(=O)[C@@H]5[C@@H](O)[C@@H](C)CN5C(=O)[C@H]([C@H](C)O)NC(=O)[C@H]([C@H](O)[C@@H](O)c5ccc(O)cc5)NC(=O)[C@@H]5C[C@@H](O)CN5C(=O)[C@H]([C@H](C)O)NC4=O)cc3)cc2)cc1 | Aspergillus niger |  |  | MIC50 |  | 0.015 µg/mL
C[C@H]1[C@H](O)[C@@H](C)/C=C/C=C/C=C/C=C/C=C/C=C/C=C/[C@H](O[C@@H]2O[C@H](C)[C@@H](O)[C@H](N)[C@@H]2O)C[C@@H]2O[C@](O)(C[C@@H](O)C[C@@H](O)CC[C@H](O)[C@@H](O)C[C@@H](O)CC(=O)O[C@H]1C)C[C@H](O)[C@H]2C(=O)O | Aspergillus fumigatus | 60 isolates |  | MIC50 |  | 1 µg/mL
CNC1=CC(=O)c2ccccc2C1=O | Aspergillus parasiticus | MTCC 2797 | broth dilution | MIC100 |  | 125 µg/mL
C[C@@H](c1nc(-c2ccc(C#N)cc2)cs1)[C@](O)(Cn1cncn1)c1cc(F)ccc1F | Aspergillus niger |  |  | MIC50 |  | 0.5–2 µg/mL
Cc1ccc(N2NOC(=O)C2S(=O)(=O)Nc2nc3ccc(F)cc3s2)cc1 | Aspergillus clavatus | MTCC323 | agar diffusion | zone | 250 µg/mL | 19 mm
CCC(C)n1ncn(-c2ccc(N3CCN(c4ccc(OC[C@H]5CO[C@](Cn6cncn6)(c6ccc(Cl)cc6Cl)O5)cc4)CC3)cc2)c1=O | Aspergillus fumigatus | NFI 0239 |  | MFC |  | >4 µg/mL
CC(=O)OC[C@H]1O[C@@H](n2nc(-c3cccnc3)n(N)c2=S)[C@H](OC(C)=O)[C@@H](OC(C)=O)[C@@H]1OC(C)=O | Aspergillus fumigatus |  | agar diffusion / agar | zone | 2.5 mg/mL | 1–5 mm
Clc1nc(NC2CC2)nc(N2CCN(c3ccccn3)CC2)n1 | Aspergillus clavatus | MTCC 1323 | agar | MIC |  | 50 µg/mL
COc1ccc(Cn2nc(C3CC3)cc2NC(=O)c2cccc(C(C)(C)C)c2)cc1 | Aspergillus ochraceus |  |  | MIC |  | 34 µg/mL
Fc1ccccc1N1CCN(c2nc(Cl)nc(NC3CC3)n2)CC1 | Aspergillus clavatus | MTCC 1323 | agar | MIC |  | 50 µg/mL
COc1ccc(Cn2nc(C3CC3)cc2NC(=O)c2ccc(Cl)cc2)cc1 | Aspergillus ochraceus |  |  | MIC |  | 32 µg/mL
COc1cccc(OC)c1O | Aspergillus fumigatus |  | agar | MIC100 |  | >1000 µg/mL
O=C1N[C@@H]2C=C[C@H]1C2 | Aspergillus glaucus | AM211 |  | MIC |  | 245 µg/mL
Fc1ccc(-c2nn(-c3ccccc3)cc2C2=NNC(c3ccc(Br)cc3)C2)cc1 | Aspergillus clavatus | MTCC 1323 |  | MIC99 |  | 50 µg/mL
O=C(O)/C=C/c1ccc(O)cc1 | Aspergillus fumigatus |  | agar | MIC50 |  | >1000 µg/mL
Fc1ccc(N2CCN(c3nc(Cl)nc(NC4CC4)n3)CC2)cc1 | Aspergillus clavatus | MTCC 1323 | agar | MIC |  | 100 µg/mL
CCCCC1OC(=O)C2CCCCC12 | Aspergillus glaucus | AM211 |  | MIC |  | 246.3 µg/mL
O=C/C=C/c1ccccc1 | Aspergillus terreus | UAB680 | agar | MIC |  | 500 µM
CCCC(=O)N1C(=O)C2C=CC1C2 | Aspergillus glaucus | AM211 |  | MIC |  | 203.8 µg/mL
C[C@@H]1[C@H](O)[C@@H](C)/C=C/C=C/CC/C=C/C=C/C=C/C=C/C(O[C@H]2O[C@H](C)[C@@H](O)[C@H](N)[C@@H]2O)CC2O[C@](O)(CC(O)C(O)CCC(O)CC(O)CC(O)CC(=O)O[C@H]1C)CC(O)C2C(=O)O | Aspergillus ochraceus | MTCC 4893 | broth dilution | MIC100 |  | 250 µg/mL
O=C1NCC2CCCCC12 | Aspergillus glaucus | AM211 |  | MIC |  | 250 µg/mL
Cc1ccc(N2NOC(=O)C2S(=O)(=O)Nc2nc(-c3ccc(Cl)cc3Cl)cs2)cc1 | Aspergillus clavatus | MTCC323 | agar diffusion | zone | 250 µg/mL | 22 mm
COc1ccccc1C=O | Aspergillus terreus | UAB698 | agar | MIC |  | 2500 µM
COc1ccc(Cn2nc(C3CC3)cc2NC(=O)c2ccc(Cl)cc2Cl)cc1 | Aspergillus ochraceus |  |  | MIC |  | 9 µg/mL
Oc1cc(O)cc(O)c1 | Aspergillus flavus |  | agar | MIC100 |  | >1000 µg/mL
Cc1ccc(N2NOC(=O)C2S(=O)(=O)Nc2nc(-c3c(F)cc(Cl)cc3Cl)cs2)cc1 | Aspergillus clavatus | MTCC323 | broth dilution | MIC |  | 1000 µg/mL
CC1=CC(=O)c2c(O)cccc2C1=O | Aspergillus oryzae | CCAM 080006 | broth dilution | MFC100 |  | 2.5 µg/mL
COc1cccc(C=O)c1O | Aspergillus terreus | UAB673 | agar | MIC |  | 500 µM

Repeating the final 4 entries:

SMILES,organism,strain or isolate,read by,measure,dose,result
Oc1cc(O)cc(O)c1,Aspergillus flavus,,agar,MIC100,,>1000 µg/mL
Cc1ccc(N2NOC(=O)C2S(=O)(=O)Nc2nc(-c3c(F)cc(Cl)cc3Cl)cs2)cc1,Aspergillus clavatus,MTCC323,broth dilution,MIC,,1000 µg/mL
CC1=CC(=O)c2c(O)cccc2C1=O,Aspergillus oryzae,CCAM 080006,broth dilution,MFC100,,2.5 µg/mL
COc1cccc(C=O)c1O,Aspergillus terreus,UAB673,agar,MIC,,500 µM